PubChem BioAssay AID624099 – ICCB-Longwood, 2012

Assay: 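Human genes that papillomavirus E2 requires to repress the HPV18 LCR promoter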 (primary screen)
Cell system: human C33A cervical carcinoma cells (HPV-negative) stably expressing BPV1 E2 and an HPV18 LCR luciferase reporter
Reagents: siRNA pool against human genes, 40 nM
Duration: 72 h
Measurement: 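HPV18 LCR reporter light per well, converted to plate-wise z-scores that exclude control wells, and averaged over triplicate plates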
Direction: mean z-score and z-score: higher = stronger reporter signal, weaker E2 silencing
Rule for the call: 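Mean z ≥ 2 together with z ≥ 2 in two or more of the three replicates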
This is a random part of about 21,000 reagents tested. Of all reagents, 497 (2.4%) got an active call. 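Higher z means weaker E2 silencing; only reporter increases were scored, and knock-downs that hurt cell survival may mask genuine repressor factors.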 Reagents against one gene are numbered here. No sequences are given here.

| gene knocked down | reagent | mean z-score | z-score, replicate A | z-score, replicate B | z-score, replicate C | outcome |
| --- | --- | --- | --- | --- | --- | --- |
| CATSPERD (catsper channel auxiliary subunit delta) | 1 | -0.4 | 0.06 | -0.48 | -0.78 | inactive |
| C3orf62 (chromosome 3 open reading frame 62) | 1 | 0.54 | 0.54 | 0.21 | 0.87 | inactive |
| FRAT2 (FRAT regulator of Wnt signaling pathway 2) | 1 | 0.11 | 0.28 | -0.11 | 0.16 | inactive |
| FCHO2 (FCH and mu domain containing endocytic adaptor 2) | 1 | -0.92 | -0.46 | -1.2 | -1.11 | inactive |
| PNMA8A (PNMA family member 8A) | 1 | -1.32 | -1.64 | -1.18 | -1.15 | inactive |
| ZNF304 (zinc finger protein 304) | 1 | -0.06 | 0.28 | 0.27 | -0.73 | inactive |
| SLC16A5 | 1 | -0.61 | -0.39 | -0.61 | -0.82 | inactive |
| ADAP2 (ArfGAP with dual PH domains 2) | 1 | -0.69 | -0.7 | -0.87 | -0.5 | inactive |
| SIGLEC5 (sialic acid binding Ig like lectin 5) | 1 | 1.01 | 1.11 | 0.95 | 0.98 | inactive |
| SLC45A3 | 1 | -0.45 | -0.3 | -0.89 | -0.17 | inactive |
| EPB41L4B (erythrocyte membrane protein band 4.1 like 4B) | 1 | -1.33 | -1.18 | -1.37 | -1.43 | inactive |
| TRPC5 | 1 | 0.44 | 0.19 | 0.67 | 0.47 | inactive |
| NPHP3 (nephrocystin 3) | 1 | -0.08 | -0.27 | 0.09 | -0.07 | inactive |
| ATG13 (autophagy related 13) | 1 | -1.78 | -1.88 | -1.85 | -1.62 | inactive |
| CHEK2 (checkpoint kinase 2) | 1 | 0.39 | -0.01 | 0.55 | 0.63 | inactive |
| MED19 (mediator complex subunit 19) | 1 | -2.39 | -2.44 | -2.33 | – | inactive |
| HTRA1 (HtrA serine peptidase 1) | 1 | 0.93 | 1.29 | 0.51 | 0.99 | inactive |
| LOC402538 (retired record) | 1 | 1.41 | 1.1 | 1.32 | 1.81 | inactive |
| SEM1 (SEM1 26S proteasome subunit) | 1 | 0.06 | -0.06 | 0.09 | 0.14 | inactive |
| SEM1 (SEM1 26S proteasome subunit) | 2 | -0.03 | 0 | 0.07 | -0.17 | inactive |
| LOC389232 (retired record) | 1 | 0.93 | 0.94 | 0.75 | 1.09 | inactive |
| CHCHD4 (coiled-coil-helix-coiled-coil-helix domain containing 4) | 1 | 0.06 | 0.07 | -0.07 | 0.18 | inactive |
| NAPB (NSF attachment protein beta) | 1 | 0.93 | 0.93 | 1.23 | 0.64 | inactive |
| AKR1C2 (aldo-keto reductase family 1 member C2) | 1 | -0.69 | -0.6 | -0.77 | -0.7 | inactive |
| CNIH3 (cornichon family AMPA receptor auxiliary protein 3) | 1 | -1.32 | -1.56 | -1.11 | -1.29 | inactive |
| ZWILCH (zwilch kinetochore protein) | 1 | 0.93 | 1.06 | 0.81 | 0.92 | inactive |
| FRMD4B (FERM domain containing 4B) | 1 | -1.14 | -1.08 | -1.38 | -0.95 | inactive |
| HDAC2 (histone deacetylase 2) | 1 | 0.31 | 0.37 | 0.31 | 0.24 | inactive |
| SNF8 (SNF8 subunit of ESCRT-II) | 1 | 0.31 | -0.18 | 0.58 | 0.53 | inactive |
| SLC23A3 | 1 | -0.46 | -0.89 | -0.24 | -0.24 | inactive |
| COQ10B (coenzyme Q10B) | 1 | 0.23 | 0.03 | 0.19 | 0.48 | inactive |
| POLR3H (RNA polymerase III subunit H) | 1 | 0.44 | 0.46 | 0.8 | 0.06 | inactive |
| ERV3-2 (endogenous retrovirus group 3 member 2) | 1 | -1.81 | -1.67 | -1.71 | -2.04 | inactive |

Looked up above:
Under “mean z-score”, SIGLEC5 (sialic acid binding Ig like lectin 5) is entered as 1.01
Under “z-score, replicate B”, CHEK2 (checkpoint kinase 2) shows 0.55
Under “z-score, replicate C”, ATG13 (autophagy related 13) shows -1.62
Value for TRPC5 in “z-score, replicate B”: 0.67
Value for FRAT2 (FRAT regulator of Wnt signaling pathway 2) in “z-score, replicate A”: 0.28
FRMD4B (FERM domain containing 4B), z-score, replicate C = -0.95

Further results:
| gene knocked down | reagent | mean z-score | z-score, replicate A | z-score, replicate B | z-score, replicate C | outcome |
| --- | --- | --- | --- | --- | --- | --- |
| LOC284409 (retired record) | 1 | -0.94 | -1.24 | -0.86 | -0.72 | inactive |
| MCM3AP | 1 | -0.2 | -0.45 | 0.02 | -0.17 | inactive |
| AQP2 (aquaporin 2) | 1 | 0.03 | 0.19 | -0.1 | 0.02 | inactive |
| NSUN5 (NOP2/Sun RNA methyltransferase 5) | 1 | 2.41 | 2.12 | 2.46 | 2.64 | active |
| RFC1 (replication factor C subunit 1) | 1 | -0.35 | -0.23 | -0.46 | -0.36 | inactive |
| GLRA2 (glycine receptor alpha 2) | 1 | -0.02 | -0.07 | 0.05 | -0.04 | inactive |
| RAB3A (RAB3A, member RAS oncogene family) | 1 | 0.23 | 0.23 | 0.22 | 0.23 | inactive |
| AGAP11 (ArfGAP with GTPase domain, ankyrin repeat and PH domain 11) | 1 | 0.63 | 0.46 | 0.65 | 0.77 | inactive |
| SLC30A2 | 1 | 0.69 | 0.54 | 0.98 | 0.53 | inactive |
| PPIB (peptidylprolyl isomerase B) | 1 | 2.07 | 2.1 | 2.21 | 1.91 | active |
| AMZ1 (archaelysin family metallopeptidase 1) | 1 | 0.74 | 0.56 | 1.11 | 0.56 | inactive |
| MKRN2 (makorin ring finger protein 2) | 1 | 0.1 | -0.21 | 0.3 | 0.22 | inactive |
| NIPA2 (NIPA magnesium transporter 2) | 1 | 1.05 | 1.46 | 0.92 | 0.77 | inactive |
| GBGT1 | 1 | 1.16 | 1.39 | 1.06 | 1.04 | inactive |
| H1-7 (H1.7 linker histone) | 1 | -1.25 | -1.26 | -1.3 | -1.19 | inactive |
| NLGN1 (neuroligin 1) | 1 | -0.86 | -0.81 | -0.89 | -0.89 | inactive |
| DMAC2 (distal membrane arm assembly component 2) | 1 | 0.31 | 1.26 | 0.34 | -0.67 | inactive |
| EIF3A (eukaryotic translation initiation factor 3 subunit A) | 1 | -2.88 | -2.97 | -2.88 | -2.8 | inactive |
| ZNF76 (zinc finger protein 76) | 1 | -0.49 | -0.29 | -0.42 | -0.75 | inactive |
| IPO7 (importin 7) | 1 | -0.18 | -0.29 | -0.04 | -0.2 | inactive |
| FSCB (fibrous sheath CABYR binding protein) | 1 | 2.6 | 2.19 | 2.49 | 3.12 | active |
| IRF3 (interferon regulatory factor 3) | 1 | -0.75 | -0.79 | -0.7 | -0.75 | inactive |
| LOC401198 (retired record) | 1 | -0.28 | 0.07 | -0.44 | -0.46 | inactive |
| ERCC6L (ERCC excision repair 6 like DNA helicase) | 1 | -1.32 | -1.3 | -1.54 | -1.13 | inactive |
